Results of unrelated studies side by side (data: NIAID ChemDB).

All rows: toxicity to cultured cells; cell line: KB; read-out: CC50

CCn is the concentration with n% toxicity to the cells. Neighbouring rows are from separate reports. Blank or dashed fields: not listed here.

structure,read by,value
O=c1c(O)c(-c2ccc(Cl)c(Cl)c2)oc2ccccc12,-,4.2 µM
OC[C@H]1O[C@@H](n2c(Cl)nc3cc(Cl)c(Cl)cc32)[C@H](O)[C@@H]1O,-,210 µM
COc1cc(C(=O)Oc2c(-c3ccc(Cl)c(Cl)c3)oc3ccccc3c2=O)cc(OC)c1OC(C)=O,-,64 µM
O=c1c2cc(O)ccc2oc2cc(O)cc(O)c12,sulforhodamine / absorbance,>50 µM
CC1=C[C@@H]2[C@@H](CC1)[C@@](C)(S)CC[C@H]2C(C)C,-,>20 µg/mL
OC[C@H]1O[C@@H](n2c(SCc3ccccc3)nc3cc4cc(Cl)c(Cl)cc4nc32)[C@H](O)[C@@H]1O,-,>100 µM
CCC[C@@H](OC(C)=O)C1=C(Br)[C@@](CI)(OC)OC1=O,-,>20 µg/mL
COc1cc(C(=O)Oc2c(-c3ccc(Cl)c(Cl)c3)oc3ccccc3c2=O)ccc1O,-,4.7 µM
CC1Oc2cc(O)c3c(=O)c4ccc(O)c(O)c4oc3c2C1(C)C,sulforhodamine / absorbance,1.68 µM
C=C[C@@](C)(Cl)[C@@H](Br)/C=C/[C@](C)(Cl)CBr,-,>20 µg/mL
OC[C@H]1O[C@@H](n2c(NC3CC3)nc3nc4cc(Cl)c(Cl)cc4cc32)[C@H](O)[C@@H]1O,-,>100 µM
COc1cc(O)cc2oc3cc(O)c(O)cc3c(=O)c12,sulforhodamine / absorbance,>50 µM
Oc1c(Cl)c(Oc2cc(Cl)cc(Cl)c2)cc(Oc2ccc(Cl)cc2Cl)c1Cl,-,>20 µg/mL
CC(=O)Oc1ccc(/C=C/C(=O)Oc2c(-c3ccc(Cl)c(Cl)c3)oc3ccccc3c2=O)cc1OC(C)=O,-,20 µM
OC[C@H]1O[C@@H](n2c(Cl)nc3nc4cc(Cl)c(Cl)cc4cc32)[C@H](O)[C@@H]1O,-,11 µM
CC(=O)Oc1ccc(/C=C/C(=O)Oc2c(-c3ccc(Cl)cc3)oc3ccccc3c2=O)cc1OC(C)=O,-,57 µM
CC(C)=CCC[C@@H](C)[C@@H]1CC[C@]2(C)C3=C(CC[C@@]12C)[C@@]1(C)CC[C@H](O)C(C)(C)[C@@H]1CC3,sulforhodamine / absorbance,>50 µM
COc1cc(/C=C/C(=O)Oc2c(-c3ccc(Cl)c(Cl)c3)oc3ccccc3c2=O)ccc1O,-,2.1 µM
C=C[C@](C)(Cl)[C@@H](Br)/C=C/[C@](C)(Cl)CBr,-,>20 µg/mL
COc1cc(/C=C/C(=O)Oc2c(-c3ccc(Cl)cc3)oc3ccccc3c2=O)ccc1O,-,4.4 µM
O=c1c2cc(O)c(O)cc2oc2cc(O)cc(O)c12,sulforhodamine / absorbance,6.26 µM